A mixed list of measured activities; the numbers were collected in NIAID ChemDB.

Common to all: tests in culture; organism: Mycobacterium tuberculosis

MIC50, MIC90 and the like: level of inhibition, or share of isolates inhibited. Percent inhibition refers to the dose given; in toxicity tests it is the harm to the cells. Blank or dashed fields: not listed here. Lines come from different laboratories, so protocols vary. MIC bound comes from a single tested concentration.

SMILES	changes	strain	measure	dose	method	result
COC(=O)c1ccc2c(Nc3ccc(Oc4ccc(C(F)(F)F)cc4)cc3)ncnc2c1	-	H37Rv	MIC50	-	luminescence	>10 µM
COc1c(OCCO)cc2oc3cc(OCCO)c(CCC(C)C)c(O)c3c(=O)c2c1CCC(C)C	-	H37Ra	MIC	-	resazurin	3.12 µg/mL
Fc1ccccc1-c1c(C(c2ccccc2)n2ccnc2)cnn1-c1ccccc1F	-	ATCC 35820 (streptomycin-resistant)	MIC90	-	-	≥100 µM
Cc1ccc(CCNc2ncnc3ccccc23)cc1	-	H37Rv	MIC50	-	luminescence	>10 µM
Fc1ccccc1-n1ncc(C(c2ccccc2)n2ccnc2)c1-c1ccccc1	-	ATCC 35828 (pyrazinamide-resistant)	MIC50	-	-	≥100 µM
COc1ccc2cc1-c1cc(cc(Br)c1O)C[C@H]1c3cc4c(cc3CCN1C)Oc1c(OC)cc3c(c1O4)[C@H](C2)N(C)CC3	-	H37Rv-ETA-R ATCC 35830	MIC	-	resazurin	3.1 µg/mL
COc1cc2oc3cc(OC)c(C(C)=O)c(CCC(C)C)c3c(=O)c2c(O)c1CCC(C)C	-	H37Ra	MIC	-	resazurin	>200 µg/mL
CC[C@H]1OC(=O)[C@H](C)[C@@H](O[C@H]2C[C@@](C)(OC)[C@@H](O)[C@H](C)O2)[C@H](C)[C@@H](O[C@@H]2O[C@H](C)C[C@H](N(C)C)[C@H]2O)[C@](C)(O)C[C@@H](C)CN(C)[C@H](C)[C@@H](O)[C@]1(C)O	-	ATCC 35822	MIC	-	-	>8 µg/mL
O=C(c1cn[nH]n1)c1ccc(Br)cc1Br	-	H37Rv	inhibition	12.5 µg/mL	-	0%
CC(=O)Nc1ccc(/C=N/NC(N)=S)cc1F	Rifampicin-resistant	H37Rv	MIC90	-	resazurin	<0.1 µg/mL
COc1ccc(/C=C2\N=COC2=O)cc1OC	-	H37Rv	MIC bound	-	BACTEC	>12.5 µg/mL
CCOC(=O)c1cn(-c2ccc(Cl)cc2)nn1	-	H37Rv	MIC	-	-	>12.5 µg/mL
O=S1(=O)CCN(c2ccc(CNc3ncnc4ccsc34)cc2)CC1	-	H37Rv	MIC50	-	luminescence	>40 µM
NC(=S)c1cncc(-n2cncn2)n1	-	Isoniazid-resistant	MIC	-	-	500 µg/mL
O=C(Nc1cccc2c1C(=O)c1cccc(Nc3ccc(NC(=O)c4ccccc4)c4c3C(=O)c3ccccc3C4=O)c1C2=O)c1ccccc1	-	H37Rv	inhibition	12.5 µg/mL	BACTEC	-3%
NC(=O)c1cnccn1	-	T7505	MIC	-	-	30 µg/mL
FC(F)(F)Oc1ccc(Oc2ccc(Nc3ncnc4ccccc34)cc2)cc1	-	H37Rv	MIC50	-	luminescence	>20 µM
Clc1ccc(-n2ncc(C(c3ccccc3)n3ccnc3)c2-c2ccccc2)cc1	-	ATCC 35820 (streptomycin-resistant)	MIC90	-	-	≥100 µM
Fc1cc(Nc2ncnc3ccccc23)ccc1N1CCOCC1	-	H37Rv	MIC50	-	luminescence	>50 µM
NNC(=O)c1ccncc1	MDR	M-4	MIC	-	resazurin	>2 µg/mL
Cc1coc(C)c1C(=O)c1cn(-c2ccccc2)nn1	-	H37Rv	inhibition	12.5 µg/mL	-	82%
CO[C@H]1/C=C/O[C@@]2(C)Oc3c(C)c(O)c4c(O)c(c(/C=N/N5CCN(C6CCCC6)CC5)c(O)c4c3C2=O)NC(=O)/C(C)=C\C=C\[C@H](C)[C@H](O)[C@@H](C)[C@@H](O)[C@@H](C)[C@H](OC(C)=O)[C@@H]1C	-	13267	MIC	-	-	<0.01 µg/mL
CCCOc1cc2oc3cc(O)c(CCC(C)C)c(O)c3c(=O)c2c(CCC(C)C)c1OC	MDR	M8	MIC	-	resazurin	3.12 µg/mL
O=C(NCCN1CCN2Cc3[nH]c4ccccc4c3CC2C1)c1ccc([N+](=O)[O-])cc1	-	H37Rv	inhibition	6.25 µg/mL	resazurin	61%
CC[C@H]1OC(=O)[C@H](C)[C@@H](O[C@H]2C[C@@](C)(OC)[C@@H](O)[C@H](C)O2)[C@H](C)[C@@H](O[C@@H]2O[C@H](C)C[C@H](N(C)C)[C@H]2O)[C@](C)(O)C[C@@H](C)C(=O)[C@H](C)[C@@H](O)[C@]1(C)O	-	Drug-resistant	MIC90	-	-	>8 µg/mL
Cc1nc(Nc2ccc(Oc3cccc(C(F)(F)F)c3)cc2)c2ccccc2n1	-	H37Rv	MIC50	-	luminescence	>20 µM
c1ccc(-c2c(C(c3ccccc3)n3ccnc3)cnn2-c2ccccc2)cc1	-	ATCC 27294	MIC50	-	-	69.9 µM
CC1CCCCN1c1cncc(C(N)=S)n1	-	Isoniazid-resistant	MIC	-	-	62.5 µg/mL
Fc1ccc2c(Nc3ccc(N4CCN(c5ccc(C(F)(F)F)cc5)CC4)c(F)c3)ncnc2c1	-	H37Rv	MIC50	-	luminescence	>50 µM
COc1cc2oc3cc(O)c(CC=C(C)C)c(O)c3c(=O)c2c(CC=C(C)C)c1C(C)=O	-	H37Ra	MIC	-	resazurin	6.25 µg/mL
O=C(Nc1ccccn1)c1cc(N2CCOCC2)ccn1	-	H37Rv	inhibition	6.25 µg/mL	resazurin	28%
COc1ccc2cc1-c1cc(ccc1O)C[C@@H]1NCCc3cc4c(cc31)Oc1c(c(OC)cc3c1[C@H](C2)N(C)CC3)O4	-	H37Rv-ETA-R ATCC 35830	MIC	-	resazurin	6.2 µg/mL
Fc1ccc2c(Nc3ccc(Oc4ccc(C(F)(F)F)cc4)cc3)nc(C(F)(F)F)nc2c1	-	H37Rv	MIC50	-	luminescence	>50 µM
Cc1ccc(S(=O)(=O)NNC(=O)c2cc(C)c(C)cc2N)cc1	-	H37Rv	MIC bound	-	BACTEC	>12.5 µg/mL
CC(=O)c1cn[nH]n1	-	H37Rv	inhibition	12.5 µg/mL	-	14%
CCCCCCCCCCS(=O)(=O)Nc1ccc(C(=O)NN)cc1	-	H37Rv	MIC bound	-	BACTEC	>12.5 µg/mL
CO[C@H]1/C=C/O[C@@]2(C)Oc3c(C)c(O)c4c(O)c(c(/C=N/N5CCN(C)CC5)c(O)c4c3C2=O)NC(=O)/C(C)=C\C=C\[C@H](C)[C@H](O)[C@@H](C)[C@@H](O)[C@@H](C)[C@H](OC(C)=O)[C@@H]1C	-	H37RV (RIF-R)	MIC	-	-	250 µg/mL
Cc1c(O)c(=O)ccn1CCN.Cl.Cl	-	H37Rv	inhibition	12.5 µg/mL	BACTEC	-2%
OC1(c2ccc(F)cc2)CCN(c2ccc(Nc3ncnc4ccccc34)cc2)CC1	-	H37Rv	MIC50	-	luminescence	>50 µM
COc1ccc(C(=O)c2cn(-c3ccc(Cl)cc3)nn2)cc1	-	H37Rv	MIC	-	-	>12.5 µg/mL
CN1C(=O)c2ccccc2Cc2c(NCc3ccccc3)ncnc21	-	H37Rv	inhibition	12.5 µg/mL	BACTEC	13%
Clc1ccccc1-c1c(C(c2ccccc2)n2ccnc2)cnn1-c1ccccc1	-	ATCC 35820 (streptomycin-resistant)	MIC90	-	-	>100 µM
Clc1ccc2c(c1)CCC(Nc1ncnc3ccccc13)C2	-	H37Rv	MIC50	-	luminescence	>50 µM
O=C(c1cn(-c2ccccc2)nn1)c1ccco1	-	H37Rv	inhibition	12.5 µg/mL	-	42%
O=C1C(CO)=C[C@@H](O)[C@H]2O[C@@H]12	-	H37Rv	MIC	-	BACTEC	≥12.8 µg/mL
CC1CN(c2cc3c(cc2F)c(=O)c(C(=O)O)cn3-c2ccc(F)cc2F)CCN1	-	ATCC 35826	MBC	-	-	2 µg/mL
COc1cc(C2c3c(cc(OC)c(O)c3OC)C=C(C(=O)O)C2CO)cc(OC)c1O	-	H37Rv	inhibition	6.25 µg/mL	resazurin	2%
C[C@H]1C[C@H](N)CN1c1cc2c(cc1F)c(=O)c(C(=O)O)cn2-c1ccc(F)cc1F	-	ATCC35838	MIC	-	-	2 µg/mL
NC1=C(C(=O)OCc2ccccc2)N=CC(CCl)[N+]1=O	-	H37Rv	MIC bound	-	BACTEC	>12.5 µg/mL
Fc1ccc(-c2c(C(c3ccccc3)n3ccnc3)cnn2-c2ccc(F)cc2F)cc1	-	ATCC 35837 (ethambutol-resistant)	MIC90	-	-	≥100 µM
FC(F)(F)c1ccc(Oc2ccc(Nc3ncnc4ccccc34)cc2)cn1	-	H37Rv	MIC50	-	luminescence	>50 µM
Clc1ccc(-n2ncc(C(c3ccccc3)n3ccnc3)c2-c2ccccc2)c(Cl)c1	-	ATCC 35822 (isoniazid-resistant)	MIC90	-	-	99.6 µM
O=[N+]([O-])C1=CN2C[C@H](OCc3ccc(OC(F)(F)F)cc3)COC2N1	-	Ddn-	MIC	-	broth dilution	>100 µM
CO[C@H]1/C=C/O[C@@]2(C)Oc3c(C)c(O)c4c(O)c(c5c(c4c3C2=O)NC2(CCN(CC(C)C)CC2)N=5)=NC(=O)/C(C)=C\C=C\[C@H](C)[C@H](O)[C@@H](C)[C@@H](O)[C@@H](C)[C@H](OC(C)=O)[C@@H]1C	-	H37RV (RIF-R)	MIC	-	-	250 µg/mL
CC1(n2nc(-c3ccccc3)n(-c3ccccc3)c2=O)CSC1	-	H37Rv	inhibition	12.5 µg/mL	BACTEC	18%
Clc1ccccc1C(c1ccccc1)(c1ccccc1)n1ccnc1	-	ATCC 35837 (ethambutol-resistant)	MIC90	-	-	≥100 µM
FC(F)(F)Oc1ccc(Oc2ccc(Nc3ncnc4cc(Cl)ccc34)cc2)cc1	-	H37Rv	MIC50	-	luminescence	>20 µM
CCC1CCC2CN(/N=C/c3c4c(O)c5c(O)c(C)c6c(c5c3O)C(=O)[C@@](C)(O/C=C/[C@H](OC)[C@@H](C)[C@@H](OC(C)=O)[C@H](C)[C@H](O)[C@H](C)[C@@H](O)[C@@H](C)/C=C/C=C(/C)C(=O)N4)O6)CCN2C1	-	H37Rv	MIC	-	-	0.03 µg/mL
FC(F)(F)Oc1ccc(Oc2ccc(Nc3ncnc4cc(Br)ccc34)cc2)cc1	-	H37Rv	MIC50	-	luminescence	>20 µM
Cl.Cl.O=C1c2ccccc2C(=O)c2c(NCCNCCO)ccc(NCCNCCO)c21	-	H37Rv	inhibition	12.5 µg/mL	BACTEC	29%
FC(F)(F)c1ccccc1CCNc1ncnc2ccsc12	-	H37Rv	MIC50	-	luminescence	>50 µM
Cc1cc(/C=N/NC(N)=O)c(C)c2c1oc1ccccc12	-	H37Rv	inhibition	12.5 µg/mL	BACTEC	44%
FC(F)(F)c1ccc(N2CCC(Oc3ccc(Nc4ncnc5ccccc45)cc3)CC2)cc1	-	H37Rv	MIC50	-	luminescence	>10 µM
Fc1ccc(-n2ncc(C(c3ccccc3)n3ccnc3)c2-c2ccccc2)c(F)c1	-	ATCC 35828 (pyrazinamide-resistant)	MIC50	-	-	≥100 µM
CC[C@H]1OC(=O)[C@H](C)[C@@H](O[C@H]2C[C@@](C)(OC)[C@@H](O)[C@H](C)O2)[C@H](C)[C@@H](O[C@@H]2O[C@H](C)C[C@H](N(C)C)[C@H]2O)[C@](C)(OC)C[C@@H](C)C(=O)[C@H](C)[C@@H](O)[C@]1(C)O	-	Drug-resistant	MIC50	-	-	>8 µg/mL
O=C1CN(N2CCOCC2)CC(=O)N2CCCCN12	-	H37Rv	MIC bound	-	BACTEC	>12.5 µg/mL
CC(=O)c1cn(-c2ccccc2)nn1	-	H37Rv	inhibition	12.5 µg/mL	-	5%
CO[C@H]1/C=C/O[C@@]2(C)Oc3c(C)c(O)c4c(O)c(c(/C=N/N5CCN(C)CC5)c(O)c4c3C2=O)NC(=O)/C(C)=C\C=C\[C@H](C)[C@H](O)[C@@H](C)[C@@H](O)[C@@H](C)[C@H](OC(C)=O)[C@@H]1C	-	KZN494	MIC	-	-	>100 µM
FC(F)(F)Oc1cccc(CCNc2ncnc3ccccc23)c1	-	H37Rv	MIC50	-	luminescence	>20 µM
Cc1c(C(=O)/C=C/c2ccccc2[N+](=O)[O-])[n+](=O)c2ccccc2n1[O-]	-	H37Rv	MIC	-	BACTEC	3.13 µg/mL
NC(=S)c1cncc(-n2ccnc2)n1	-	H37Rv	MIC	-	-	250 µg/mL
CO[C@H]1/C=C/O[C@@]2(C)Oc3c(C)c(O)c4c(O)c(c(/C=N/N5CCN(C)CC5)c(O)c4c3C2=O)NC(=O)/C(C)=C\C=C\[C@H](C)[C@H](O)[C@@H](C)[C@@H](O)[C@@H](C)[C@H](OC(C)=O)[C@@H]1C	-	M11	MIC	-	resazurin	>2 µg/mL
CC(C)(CO)NCC(C)(C)NC(Cc1ccccc1Cl)c1ccccc1.Cl.Cl	-	H37Rv	inhibition	12.8 µg/mL	BACTEC	11%
CCc1cc(C(N)=S)ccn1	-	H37Rv	MIC	-	-	1.25 µg/mL
OCCNCCN1CCN(CCCN2c3ccccc3Sc3ccc(C(F)(F)F)cc32)CC1	-	H37Rv	inhibition	12.5 µg/mL	BACTEC	98%
CC1CCCCN1c1cncc(/C(N)=N/O)n1	-	Capreomycin-resistant	MIC	-	-	250 µg/mL
Cc1cc2nc3c(N)ccc(N)c3nc2cc1N	-	H37Rv	inhibition	12.5 µg/mL	BACTEC	52%
Clc1ccc(CCNc2ncnc3ccsc23)cc1Cl	-	H37Rv	MIC50	-	luminescence	>50 µM
COc1cc(Cl)c(/C=C2\N=C(c3ccccc3)OC2=O)cc1OC	-	H37Rv	inhibition	12.5 µg/mL	BACTEC	37%
C[C@]1(COc2ccc(N3CCC(Oc4ccc(OC(F)(F)F)cc4)CC3)cc2)Cn2cc([N+](=O)[O-])nc2O1	-	ATCC 35822 (H37RV-H-R)	MIC	-	-	0.012 µg/mL

Again, the opening 6 rows:

COC(=O)c1ccc2c(Nc3ccc(Oc4ccc(C(F)(F)F)cc4)cc3)ncnc2c1 ; strain: H37Rv ; measure: MIC50 ; method: luminescence ; result: >10 µM
COc1c(OCCO)cc2oc3cc(OCCO)c(CCC(C)C)c(O)c3c(=O)c2c1CCC(C)C ; strain: H37Ra ; measure: MIC ; method: resazurin ; result: 3.12 µg/mL
Fc1ccccc1-c1c(C(c2ccccc2)n2ccnc2)cnn1-c1ccccc1F ; strain: ATCC 35820 (streptomycin-resistant) ; measure: MIC90 ; result: ≥100 µM
Cc1ccc(CCNc2ncnc3ccccc23)cc1 ; strain: H37Rv ; measure: MIC50 ; method: luminescence ; result: >10 µM
Fc1ccccc1-n1ncc(C(c2ccccc2)n2ccnc2)c1-c1ccccc1 ; strain: ATCC 35828 (pyrazinamide-resistant) ; measure: MIC50 ; result: ≥100 µM
COc1ccc2cc1-c1cc(cc(Br)c1O)C[C@H]1c3cc4c(cc3CCN1C)Oc1c(OC)cc3c(c1O4)[C@H](C2)N(C)CC3 ; strain: H37Rv-ETA-R ATCC 35830 ; measure: MIC ; method: resazurin ; result: 3.1 µg/mL